Test results taken from US20230248000A1, “ANTIMICROBIAL COMPOUNDS AND METHODS OF USE” (Aequor, Inc., priority 2016, published 2023).

Tests used:
Assay type in all cases: cell-based, Staphylococcus aureus
S. aureus ATCC 25923 [1] = test: Minimum Inhibitory Concentration (MIC) on planktonic bacteria, CLSI M07-A9 modified for 96 well plates; conditions: lowest concentration inhibiting visible growth after overnight incubation
S. aureus ATCC 25923 [2] = test: Biofilm prevention (inhibition), 96-well microplate assay
S. aureus ATCC 25923 [3] = test: Biofilm removal, MBEC Assay (ASTM E2799-12)

SMILES: CCCCOP(N)(=O)OCCCC
- MIC (S. aureus ATCC 25923 [1]): 1.0%
- Biofilm Prevention (S. aureus ATCC 25923 [2]): 99.99%
- Biofilm Removal (S. aureus ATCC 25923 [3]): 99.99%
- MBEC Qualitative (S. aureus ATCC 25923 [3]; microplate reader absorbance 630 nm, clear wells A630<0.1): 0.24%
